Measured values from several laboratories, pooled; numbers as filed in NIAID ChemDB.

Common to all: cytotoxicity tests; cells: MT-4; endpoint: CC50

Conditions beyond the fields shown may differ between rows. Blank or dashed fields: not listed here. CCn: concentration that lowers growth or viability of the cells by n%.

structure,read by,result
Oc1cc(O)c2c(c1)O[C@H](c1cc(O)c(O)c(O)c1)[C@H](O)C2,-,14.6 µg/mL
O=C1/C(=C\c2ccccc2[N+](=O)[O-])N(CCc2cccs2)C(=S)N1CCc1cccs1,MTT,67.78 µg/mL
CCCCCCCCCCCCOC(=O)OCOc1c2n(cc(C(=O)NCc3ccc(F)cc3F)c1=O)[C@@H]1CN(C2=O)[C@@H](C)CC[C@]12CC(C)=NO2,luminescence,50 µM
CC(C)[C@H](NC(=O)OCc1ccccc1)C(=O)N[C@@H](Cc1ccccc1)[C@@H](O)[C@@H](NCc1ccc(Br)cc1)C(=O)N[C@H](C(=O)NCc1nc2ccccc2[nH]1)C(C)C,-,8.3 µM
O=C(O)/C(=C\c1ccc(C(F)(F)F)cc1)n1nnc2ccccc21,-,>100 µM
Cc1ccc(S(=O)(=O)N2C(=O)CSC2c2ccc(C(C)C)cc2)cc1,-,>125 µM
O=C1/C(=C\c2ccc(F)cc2)N(CCc2cccs2)C(=S)N1CCc1cccs1,MTT,>93.1 µg/mL
O=CC1OC(=O)c2cc(O)c(O)c(O)c2Oc2cc3c(c(O)c2O)-c2c(cc(O)c(O)c2O)C(=O)OCC2OC(OC(=O)c4cc(O)c(O)c(O)c4Oc4cc5c(c(O)c4O)-c4c(cc(O)c(O)c4O)C(=O)OC(C(O)COC5=O)C1OC(=O)c1cc(O)c(O)c(O)c1)C(OC(=O)c1cc(O)c(O)c(O)c1)C(OC(=O)c1cc(O)c(O)c(O)c1)C2OC3=O,-,74.3 µg/mL
CCCCCCCCCCCCCCCC(=O)Oc1c2n(cc(C(=O)NCc3ccc(F)cc3F)c1=O)[C@@H]1CN(C2=O)[C@@H](C)CC[C@]12CC(C)=NO2,luminescence,50 µM
Clc1ccc(-c2nc(-c3nnc(C45CCC6CC(CC4C6)C5)o3)cs2)cc1,MTT,>125 µM
CCOCn1c(Cc2cccc(C(F)(F)F)c2)c(CC)c(=O)[nH]c1=O,-,>100 µM
CCOC(=O)c1cc2cc(Cl)ccc2n1CC(O)CNc1ccccc1C(=O)OC,-,39 µM
COc1cc([C@H]2c3c(cc4c(c3OC)OCO4)C[C@H]3COC(=O)[C@@H]32)cc(C)c1OC,-,486 µM
O=C(OCC1OC(OC(=O)c2cc(O)c(O)c(O)c2)C2OC(=O)c3cc(O)c(O)c(O)c3-c3c(cc(O)c(O)c3O)C(=O)OC2C1OC(=O)c1cc(O)c(O)c(O)c1Oc1cc2c(c(O)c1O)-c1c(cc(O)c(O)c1O)C(=O)OC1C(COC2=O)OC(OC(=O)c2cc(O)c(O)c(O)c2)C2OC(=O)c3cc(O)c(O)c(O)c3-c3c(cc(O)c(O)c3O)C(=O)OC12)c1cc(O)c(O)c(O)c1,-,34.8 µg/mL
O=[N+]([O-])c1ccc(-c2csc(N/N=C/c3ccccc3O)n2)cc1,MTT,125 µM
COc1cc(/C=C(/C#N)n2nc3ccccc3n2)cc(OC)c1OC,-,>100 µM
Cc1ccc(S(=O)(=O)N2C(=O)CSC2c2cccc(Br)c2)cc1,MTT,>125 µM
CC(C)[C@H](NC(=O)[C@H](NCc1ccccc1)[C@H](O)[C@H](Cc1ccccc1)NC(=O)[C@@H](NC(=O)OCc1ccccc1)C(C)(C)C)C(=O)NCc1ccccc1,-,6.2 µM
O=CC1OC(=O)c2cc(O)c(O)c(O)c2Oc2cc3c(c(O)c2O)-c2c(cc(Oc4c(C(=O)O)cc(O)c(O)c4O)c(O)c2O)C(=O)OCC(O)C(OC3=O)C(OC(=O)c2cc(O)c(O)c(O)c2)C(C=O)OC(=O)c2cc(O)c(O)c(O)c2Oc2cc3c(c(O)c2O)-c2c(cc(O)c(O)c2O)C(=O)OC(C(O)COC3=O)C1OC(=O)c1cc(O)c(O)c(O)c1,-,96.7 µg/mL
Cc1ccc(S(=O)(=O)N2C(=O)CSC2c2cccc([N+](=O)[O-])c2)cc1,MTT,>125 µM
Brc1ccc(-c2csc(N/N=C/c3cccnc3)n2)cc1,MTT,23.39 µM
N#Cc1ccc(Nc2nc(N)nc(Cc3c(F)ccc(F)c3F)n2)cc1,MTT,>0.66 µM
Clc1ccccc1-c1nc(-c2nnc(C34CCC5CC(CC3C5)C4)o2)cs1,MTT,>125 µM
CCOC(=O)c1cc2ccccc2n1CC(O)CNc1ccccc1C(=O)OC,-,39 µM
COC1=NO[C@@]2(CC[C@H](C)N3C[C@H]2n2cc(C(=O)NCc4ccc(F)cc4F)c(=O)c(OC(=O)CCCCCCCCCCCCCCCCC(=O)O)c2C3=O)C1,luminescence,50 µM
CCOCn1c(Cc2cc(F)ccc2F)c(CC)c(=O)[nH]c1=O,-,>100 µM
CCCCCCCC(=O)OCOc1c2n(cc(C(=O)NCc3ccc(F)cc3F)c1=O)[C@@H]1CN(C2=O)[C@@H](C)CC[C@]12CC(C)=NO2,luminescence,50 µM
Brc1ccc(-c2nc(-c3nnc(C45CCC6CC(CC4C6)C5)o3)cs2)cc1,MTT,≥110 µM
COc1ccc(/C=N/Nc2nc(-c3ccc(Cl)cc3)cs2)cc1,MTT,125 µM
O=C(OC[C@H]1O[C@@H](OC(=O)c2cc(O)c(O)c(O)c2)[C@H](OC(=O)c2cc(O)c(O)c(O)c2)[C@@H](O)[C@@H]1O)c1cc(O)c(O)c(O)c1,-,29.7 µg/mL
Cc1ccc(S(=O)(=O)N2C(=O)CSC2c2ccccc2[N+](=O)[O-])cc1,MTT,>125 µM
N#C/C(=C/c1cccc(Cl)c1)n1nnc2ccccc21,-,3 µM
O=C1/C(=C\c2ccc(C3=CC=C3)cc2)N(CCc2cccs2)C(=S)N1CCc1cccs1,MTT,58.03 µg/mL
CCOC(=O)c1cn(CC(O)CSc2ccccc2C(=O)NC(C)(C)C)cc1-c1ccccc1,-,94 µM
O=C[C@H](OC(=O)c1cc(O)c(O)c(O)c1Oc1cc2c(c(O)c1O)-c1c3cc(c(O)c1O)Oc1c(cc(O)c(O)c1O)C(=O)O[C@@H](C=O)[C@@H](OC(=O)c1cc(O)c(O)c(O)c1)[C@@H]1OC(=O)c4cc(O)c(O)c(O)c4-c4c(cc(c(O)c4O)Oc4c(cc(O)c(O)c4O)C(=O)O[C@@H](C=O)[C@@H](OC(=O)c4cc(O)c(O)c(O)c4)[C@H](OC3=O)[C@H](O)COC2=O)C(=O)OC[C@H]1O)[C@@H](OC(=O)c1cc(O)c(O)c(O)c1)[C@@H]1OC(=O)c2cc(O)c(O)c(O)c2-c2c(cc(O)c(O)c2O)C(=O)OC[C@H]1O,-,48.2 µg/mL
C/C(=N\Nc1nc(-c2ccc(C#N)cc2)cs1)c1ccc(Cl)c(Cl)c1,MTT,17.1 µM
COc1ccc([C@H]2c3c(cc4c(c3OC)OCO4)C[C@H]3CSC[C@@H]32)cc1OCc1ccccc1,-,>840 µM
C#CCOCn1c(Cc2cccc(C(F)(F)F)c2)c(CC)c(=O)[nH]c1=O,-,68 µM
Cc1ccc(S(=O)(=O)N2C(=O)CSC2c2ccc([N+](=O)[O-])cc2)cc1,MTT,>125 µM
COc1ccc(/C=C(\C#N)n2nnc3ccccc32)cc1,-,0.05 µM
Fc1ccc(-c2nc(-c3nnc(C45CCC6CC(CC4C6)C5)o3)cs2)cc1,MTT,75.2 µM
CCCCCOC(=O)OCOc1c2n(cc(C(=O)NCc3ccc(F)cc3F)c1=O)[C@@H]1CN(C2=O)[C@@H](C)CC[C@]12CC(C)=NO2,luminescence,50 µM
CCOC(=O)c1cn(CC(O)CNc2ccc(C(=O)OC)cc2)cc1-c1ccccc1,-,61.3 µM
O=C1/C(=C\c2ccc(Cl)cc2Cl)N(CCc2cccs2)C(=S)N1CCc1cccs1,MTT / turbidity,67.9 µg/mL
COc1c2c(cc3c1[C@H](c1ccc(O)c(Oc4ccccc4)c1)[C@H]1C(=O)OC[C@@H]1C3)OCO2,-,>840 µM
COC1=NO[C@@]2(CC[C@H](C)N3C[C@H]2n2cc(C(=O)NCc4ccc(F)cc4F)c(=O)c(OCOC(=O)OCCCCCCCC(C)C)c2C3=O)C1,luminescence,50 µM
N#C/C(=C\c1ccco1)n1nc2ccccc2n1,-,>100 µM
COc1cc([C@H]2c3c(cc(OC)c(OC)c3OC)C[C@H]3CSC[C@@H]32)cc(OC)c1OC,-,58 µM
CC(C)(C)NC(=O)c1ccccc1NCC(O)Cn1c(C(=O)NC(C)(C)C)cc2ccccc21,-,27 µM
O=C1/C(=C\c2ccc(Cl)cc2)N(CCc2cccs2)C(=S)N1CCc1cccs1,MTT / turbidity,103 µg/mL
CC(C)[C@H](NC(=O)OCc1ccccc1)C(=O)N[C@@H](Cc1ccccc1)[C@@H](O)[C@@H](NCc1ccccc1)C(=O)N[C@H](C(=O)NCc1nc2ccccc2[nH]1)C(C)C,-,6 µM
Cc1ccnc2c1NC(=O)c1cccnc1N2C1CC1,MTT,>4 µM
N#C/C(=C\c1ccc(C#N)cc1)n1nnc2ccccc21,-,3 µM
O=C(O[C@@H]1[C@@H](c2c(O)cc(O)c3c2O[C@H](c2ccc(O)c(O)c2)[C@H](OC(=O)c2cc(O)c(O)c(O)c2)C3)c2c(O)cc(O)cc2O[C@@H]1c1ccc(O)c(O)c1)c1cc(O)c(O)c(O)c1,-,52.5 µg/mL
CC(C)[C@H](NC(=O)[C@H](NCc1ccc(Cl)cc1)[C@H](O)[C@H](Cc1ccccc1)NC(=O)[C@@H](NC(=O)OCc1ccccc1)C(C)(C)C)C(=O)NCc1nc2ccccc2[nH]1,-,5.6 µM
C#CCOCn1c(Cc2cccc(F)c2)c(CC)c(=O)[nH]c1=O,-,>100 µM
CC(C)[C@H](NC(=O)OCc1ccccc1)C(=O)N[C@@H](Cc1ccccc1)[C@@H](O)[C@@H](NCc1ccccc1)C(=O)N[C@H](C(=O)NCc1ccccc1)C(C)C,-,>30 µM
O=C1OCC(O)C(C2OC(=O)c3cc(O)c(O)c(O)c3-c3c(O)c(O)c(O)c4c3C(=O)OC2C4c2c(O)cc(O)c3c2OC(c2ccc(O)c(O)c2)C(O)C3)OC(=O)c2cc(O)c(O)c(O)c2-c2c1cc(O)c(O)c2O,-,46 µg/mL

The last 4 rows once more:

structure	read by	result
CC(C)[C@H](NC(=O)[C@H](NCc1ccc(Cl)cc1)[C@H](O)[C@H](Cc1ccccc1)NC(=O)[C@@H](NC(=O)OCc1ccccc1)C(C)(C)C)C(=O)NCc1nc2ccccc2[nH]1	-	5.6 µM
C#CCOCn1c(Cc2cccc(F)c2)c(CC)c(=O)[nH]c1=O	-	>100 µM
CC(C)[C@H](NC(=O)OCc1ccccc1)C(=O)N[C@@H](Cc1ccccc1)[C@@H](O)[C@@H](NCc1ccccc1)C(=O)N[C@H](C(=O)NCc1ccccc1)C(C)C	-	>30 µM
O=C1OCC(O)C(C2OC(=O)c3cc(O)c(O)c(O)c3-c3c(O)c(O)c(O)c4c3C(=O)OC2C4c2c(O)cc(O)c3c2OC(c2ccc(O)c(O)c2)C(O)C3)OC(=O)c2cc(O)c(O)c(O)c2-c2c1cc(O)c(O)c2O	-	46 µg/mL